According to patent US20110033498:

Experiments:
[1] = biological target: K48-linked poly-ubiquitin chains Ub2-7 (UniProt P0CG47)
[2] = biological target: K63-linked poly-ubiquitin chains (UniProt P0CG47)

Substance	in vitro hydrolysis of K48-linked Ub chains, Coomassie staining [1]	in vitro deconjugation assay, SDS-PAGE and Coomassie-type staining [1]	in vitro deconjugation assay, SDS-PAGE and Coomassie-type staining [2]
A20 catalytic domain (A20CD)	even though it cleaved K48-linked Ub chains (FIG. 12F, lane 4)	–	–
USP5/Isopeptidase T	–	similarly to isopeptidase T, a known DUB enzyme (FIG. 12B, lane 10)	similarly to isopeptidase T, a known DUB enzyme (FIG. 12B, lane 10)
